Laboratory results as given in patent publication USRE39240E1, “Conotoxins I” (dated 2006).

Test system: a particular receptor
Test: expected receptor affinity testing
Conditions: believed that testing will show; not tested

With “H-His-4Hyp-4Hyp-Cys-Cys-Leu-Tyr-Gly-Lys-Cys-Arg-Arg-Tyr-4Hyp-Gly-Cys-Ser-Ser-Ala-Ser-Cys-Cys-Gln-OH” the “expected affinity and specificity for a receptor” value was “high affinity and specificity for a particular receptor”.
